According to US8080523B2 (The Regents of the University of California, priority 2004, dated 2011):

Tests used:
[1] = Cytotoxicity (% dead cells), Jurkat cells; type: cell-based; settings: 100 nM, 48 hours
[2] = test system: conscious rats; test: Heart rate variability analysis (electrocardiogram) in conscious rats; type: in vivo, rat
[3] = in vivo; type: in vivo, rat
[4] = Stability in rat plasma or PBS containing 2% rat plasma at 37° C.; type: in vitro ADME; settings: in about 5 hours, then steady for 2 days
[5] = Cytotoxicity (% dead cells), human PBMCs; type: cell-based; settings: 100 nM, 48 hours
[6] = test system: tester strain TA97A; test: Ames test; type: cell-based; settings: 100 nM
[7] = Cytotoxicity (% dead cells), RPMI 8226 myeloma; type: cell-based; settings: 100 nM, 48 hours
[8] = test system: acute EAE induced by the transfer of MBP-activated PAS TEM cells into Lewis rats; type: in vivo, rat; settings: 10 μg/kg/day for 5 days

CC[C@H](C)[C@@H]1NC(=O)[C@@H](NC(=O)[C@H](CO)NC(=O)[C@H](CCCNC(=N)N)NC(=O)COCCOCCNC(=O)[C@@H](N)Cc2ccc(OP(=O)(O)O)cc2)CSSC[C@@H](C(=O)O)NC(=O)[C@H]([C@@H](C)O)NC(=O)CNC(=O)[C@@H]2CSSC[C@@H]3NC(=O)[C@H](CCC(N)=O)NC(=O)[C@H](Cc4ccccc4)NC(=O)[C@H](C)NC(=O)[C@H]([C@@H](C)O)NC(=O)[C@H](CSSC[C@H](NC(=O)[C@H](Cc4ccccc4)NC(=O)[C@H](CO)NC(=O)[C@H](CC(C)C)NC(=O)[C@H](CCCNC(=N)N)NC(=O)[C@H](Cc4ccc(O)cc4)NC(=O)[C@H](CCCCN)NC(=O)[C@H](CCSC)NC(=O)[C@H](CO)NC(=O)[C@H](Cc4cnc[nH]4)NC(=O)[C@H](CCCCN)NC3=O)C(=O)N[C@@H](CCCNC(=N)N)C(=O)N[C@@H](CCCCN)C(=O)N[C@@H]([C@@H](C)O)C(=O)N2)NC(=O)[C@H](CCCNC(=N)N)NC(=O)[C@H](CO)NC(=O)[C@H](CCCCN)NC(=O)[C@@H]2CCCN2C(=O)[C@H]([C@@H](C)CC)NC(=O)[C@H]([C@@H](C)O)NC(=O)[C@H](CC(=O)O)NC1=O [ShK(L5)]
cytotoxicity at 0.1 µM [1]: 5.5 ± 3.3%
effect on heart rate or the standard HRV parameters ([2]; 10 mg/kg/day on day-2): no effect
CV % ([2]; acute, 10 μg/kg): 9.2 ± 2.2%
HF (%) ([2]; acute, 10 μg/kg): 53 ± 10%
Heart rate ([2]; acute, 10 μg/kg): 311 ± 20
LF (%) ([2]; acute, 10 μg/kg): 47 ± 10%
SDNN ([2]; acute, 10 μg/kg): 17.8 ± 4.4
rMSSD ([2]; acute, 10 μg/kg): 9.8 ± 3.5
level at time molar at 24 h ([3]; Lewis, rat, in vivo, sc, 10 mg/kg/day, repeated daily administration 10 mg/kg/day, measured 24 hours after injection, read-out: steady-state level): ~0.3 nM
level at time molar at 24 h ([3]; rat, in vivo, sc, 10 mg/kg, almost 24 hours after a single subcutaneous injection of 10 mg/kg, read-out: steady-state level in the blood): 0.3 nM
level at time molar at 7 h ([3]; rat, in vivo, sc, 200 mg/kg, 200 mg/kg s.c., over 420 minutes, read-out: baseline serum level): ~0.3 nM
half-life ([3]; rat, in vivo, sc, single exponential fit, 200 mg/kg s.c., read-out: circulating half-life): ~50 min
Kv1.3- versus Kv1.1-blocking activities of sera from treated rats (in vivo stability) ([3]; serum samples from ShK(L5)-treated animals): same selectivity
disappearance from blood, intravenous versus subcutaneous ([3]; single injections of 10 mg/kg): same time course
time to peak level ([3]; single subcutaneous injection of 200 mg/kg): 30 min
reduction in Kv1.3-blocking activity [4]: 50%
cytotoxicity at 0.1 µM [5]: 7.5 ± 4.3%
Ames Test [6]: Negative
cytotoxicity at 0.1 µM [7]: 6.5 ± 2.1%
signs of toxicity in prevention trials [8]: No signs of toxicity

Where two headings read alike, the source gives them in different places.
